Results deposited as PubChem BioAssay AID624099 (ICCB-Longwood, 2012)

Assay: 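Knock-downs relieving repression by E2 of an HPV18 LCR luciferase reporter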 (primary screen)
Cells: human C33A cervical carcinoma cells (HPV-negative) stably expressing BPV1 E2 and an HPV18 LCR luciferase reporter
Reagent: siRNA pool against human genes, 40 nM
Time to read-out: 72 h
Measurement: 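Per-well luciferase luminescence, z-scored on each plate against the plate mean and SD with control wells left out, then averaged across three replicate plates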
Scale: mean z-score and z-score: higher = stronger reporter signal, weaker E2 silencing
Active means: 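Mean z ≥ 2 together with z ≥ 2 in two or more of the three replicates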
Here is one part, drawn at random, of about 21,000 reagents. In the full data, 497 (2.4%) are marked active. 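Higher z means weaker E2 silencing; only reporter increases were scored, and knock-downs that hurt cell survival may mask genuine repressor factors.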 Unmarked entries are inactive.

target gene,mean z-score,"z-score, replicate A","z-score, replicate B","z-score, replicate C"
LMO3 (LIM domain only 3),0.38,0.27,0.46,0.42
PDIA4 (protein disulfide isomerase family A member 4),-0.1,-0.4,0.18,-0.07
ZNF777 (zinc finger protein 777),-0.2,-0.21,-0.11,-0.27
SLC13A1,0.77,0.68,0.6,1.02
NLRP1 (NLR family pyrin domain containing 1),0.38,0.44,0.63,0.07
ECEL1 (endothelin converting enzyme like 1),-0.13,0.06,-0.47,0
NMUR2 (neuromedin U receptor 2),-0.66,-0.38,-0.79,-0.81
RASGRP2 (RAS guanyl releasing protein 2),-0.03,0.09,-0.28,0.1
AGBL2 (AGBL carboxypeptidase 2),-0.41,-0.49,-0.28,-0.48
FAM120AOS (family with sequence similarity 120 member A opposite strand),0.7,0.94,0.45,0.7
LOC145845,-1.2,-1.77,-0.56,-1.27
DMXL2 (Dmx like 2),0.26,-0.02,0.16,0.63
UBE2D2 (ubiquitin conjugating enzyme E2 D2),-0.26,-0.39,-0.4,0.02
PITPNM1 (phosphatidylinositol transfer protein membrane associated 1),-1.27,-1.27,-1.32,-1.24
ZNF699 (zinc finger protein 699),0.53,0.75,0.7,0.13
UBE2E4P (ubiquitin conjugating enzyme E2 E4 pseudogene),-0.2,-0.37,-0.29,0.05
TMEM256 (transmembrane protein 256),-1.54,-1.47,-1.7,-1.44
INPP5D (inositol polyphosphate-5-phosphatase D),-0.67,-0.09,-1.04,-0.87
LOC387630 (retired record),0.14,0.03,0.09,0.31
DUSP15 (dual specificity phosphatase 15),1.23,1.37,1.05,1.26
PIBF1 (progesterone immunomodulatory binding factor 1),0.97,0.96,1.08,0.86
ZNF667 (zinc finger protein 667),0.39,-0.35,0.33,1.2
VDAC1 (voltage dependent anion channel 1),-0.2,-0.33,-0.09,-0.17
PROKR1 (prokineticin receptor 1),-1.15,-1.61,-1.04,-0.8
NAPSA (napsin A aspartic peptidase),0.75,0.84,0.74,0.66
ZNF326 (zinc finger protein 326),0.71,0.82,0.79,0.52
DIP2C (DIP2 acetate--CoA ligase C (putative)),0.28,0.48,0.23,0.12
RPL5P29 (ribosomal protein L5 pseudogene 29),-0.83,-0.63,-0.9,-0.97
LMNB1 (lamin B1),0.14,0.26,0.07,0.08
MMP26 (matrix metallopeptidase 26),-1.03,-1.2,-0.93,-0.96
TRDN (triadin),-0.51,-0.62,-0.55,-0.35
"DPM3 (dolichyl-phosphate mannosyltransferase subunit 3, regulatory)",-1.18,-0.95,-1.06,-1.53
H1-10 (H1.10 linker histone),-0.61,-0.46,-0.45,-0.93
HOXB6 (homeobox B6),0.46,0.52,0.43,0.42
SPICE1 (spindle and centriole associated protein 1),-0.85,-1.24,-0.74,-0.56
EMC1 (ER membrane protein complex subunit 1),0.16,0.21,0.16,0.11
DCLK3 (doublecortin like kinase 3),0.72,0.75,0.57,0.83
MTA1 (metastasis associated 1),-0.44,-0.78,-0.19,-0.35
FAM117A (family with sequence similarity 117 member A),-2.35,-2.01,-1.95,-3.1
KARS1 (lysyl-tRNA synthetase 1),-0.88,-0.86,-1.08,-0.69
LOC401295 (retired record),0.14,0.17,0.27,-0.01
EEF1DP1,-0.27,-0.46,-0.29,-0.06
LINC02909 (long independently transcribed non-coding RNA 2909),1.17,1.11,1.18,1.21
HAL (histidine ammonia-lyase),-0.26,-0.16,-0.44,-0.17
ZNF789 (zinc finger protein 789),-0.45,-0.5,-0.52,-0.32
TSPAN2 (tetraspanin 2),-0.92,-0.96,-0.88,-0.9
"CRIPTO (cripto, EGF-CFC family member)",-0.08,-0.14,-0.07,-0.04
ADAMTS2 (ADAM metallopeptidase with thrombospondin type 1 motif 2),-0.23,0.35,-0.37,-0.66
SAP30L (SAP30 like),0.12,0.26,0.08,0.02
SYN3 (synapsin III),-0.51,-0.64,-0.37,-0.52
OR3A1 (olfactory receptor family 3 subfamily A member 1),0.6,0.87,0.3,0.64
FAM204A (family with sequence similarity 204 member A),0.7,0.99,0.73,0.37
FAM230J (family with sequence similarity 230 member J),0.81,0.97,0.89,0.58
LOC200226 (retired record),0.72,0.43,0.89,0.85
"MAS1L (MAS1 proto-oncogene like, G protein-coupled receptor)",-0.62,-0.5,-0.81,-0.54
ZNF207 (zinc finger protein 207),0.54,0.42,0.56,0.65
SF3A1 (splicing factor 3a subunit 1),-0.8,-0.84,-0.78,-0.79

A run of entries of the results above, as a working copy:
target gene,mean z-score,"z-score, replicate A","z-score, replicate B","z-score, replicate C"
MTA1 (metastasis associated 1),-0.44,-0.78,-0.19,-0.35
FAM117A (family with sequence similarity 117 member A),-2.35,-2.01,-1.95,-3.1
KARS1 (lysyl-tRNA synthetase 1),-0.88,-0.86,-1.08,-0.69
LOC401295 (retired record),0.14,0.17,0.27,-0.01
EEF1DP1,-0.27,-0.46,-0.29,-0.06
LINC02909 (long independently transcribed non-coding RNA 2909),1.17,1.11,1.18,1.21
